{
  "source": "ChEMBL document CHEMBL1201862",
  "about": "“PubChem BioAssay data set” (2004)",
  "note": "The list shows a part of the results. Only a part of the results of these assays is listed, not drawn at random. Calls of active or inactive are those of the source. The calls are words filed in the database; no cut-off is given here.",
  "data": [
    {"assay": "qHTS for Stage-Specific Inhibitors of Vaccinia Orthopoxvirus: Venus Reporter Primary qHTS.", "format": "functional", "values": [
      {"smiles": "O=C(OC1CN2CCC1CC2)C12CC3CC(CC(C3)C1)C2", "note": "(stereo unspecified)", "Potency": "inactive"}
    ]}
  ]
}
